Pooled drug test results. Numbers come from NIAID ChemDB, via PubChem.

All rows: whole-cell or culture tests

ECn: concentration that inhibits the pathogen or its effect by n%.

{"SMILES": "O=C(Nc1ccc2cc(S(=O)(=O)[O-])cc(S(=O)(=O)[O-])c2c1)c1ccccc1", "dose": "50 µg/mL", "cell line": "Human amnion AV3 cells", "strain": "TYPE 3", "method": "cytopathic effect", "measure": "inhibition", "species": "Adenovirus", "result": "0%"}
{"SMILES": "Oc1cccc(C=Nc2ccccc2O)c1", "strain": "96806", "measure": "MIC99", "species": "Cryptococcus neoformans", "result": "4 µg/mL"}
{"SMILES": "C=CCc1ccc(O)c(OC)c1", "strain": "2356", "method": "turbidity", "measure": "MIC90", "species": "Candida tropicalis", "result": "500 µg/mL"}
{"SMILES": "O=c1[nH]c(=O)n([C@@H]2O[C@H](CO)[C@@H](O)[C@@H]2O)cc1/C=C/Cl", "dose": "0.0001 µg/mL", "cell line": "HELF", "strain": "Ohtomo", "method": "plaque count", "measure": "inhibition", "species": "Varicella zoster virus", "result": "68%"}
{"SMILES": "O=S(=O)([O-])c1cccc(O)c1", "dose": "50 µg/mL", "cell line": "Human amnion AV3 cells", "method": "cytopathic effect", "measure": "inhibition", "species": "Herpes simplex virus", "result": "45%"}
{"SMILES": "CCOC(=O)c1c(C)nc(NCCCNc2ccnc3cc(Cl)ccc23)nc1-c1ccccc1", "strain": "547/OTTI-97-PI-10", "measure": "MIC99", "species": "Cryptococcus gattii", "result": "16 µg/mL"}
{"SMILES": "CCC(CC)O[C@@H]1C=C(C(=O)O)C[C@H](N)[C@H]1NC(C)=O", "cell line": "MDCK", "strain": "H3N2 A/X-31", "measure": "EC50", "species": "Influenza A virus", "result": "0.12 µM"}
{"SMILES": "Cc1cn([C@@H]2O[C@H](CO)[C@@H](O)[C@@H]2F)c(=O)nc1N", "dose": "0.1 µg/mL", "cell line": "HELF", "strain": "KANNO", "method": "plaque count", "measure": "inhibition", "species": "Varicella zoster virus", "result": "100%"}
{"SMILES": "O=S(=O)([O-])c1ccc(NS(=O)(=O)c2ccccc2)c2c(S(=O)(=O)[O-])cccc12", "dose": "10 µg/mL", "cell line": "Human embryonic lung cells", "method": "cytopathic effect", "measure": "inhibition", "species": "Rhinovirus", "result": "60%"}
{"SMILES": "Cc1nc(NCCCCNc2ccnc3cc(Cl)ccc23)nc(-c2ccccc2[N+](=O)[O-])c1C(=O)OC(C)C", "strain": "29/10893", "measure": "MIC99", "species": "Cryptococcus gattii", "result": "4 µg/mL"}
{"SMILES": "O=C(Nc1c(S(=O)(=O)[O-])cc2cc(S(=O)(=O)[O-])cc(O)c2c1O)c1ccccc1", "dose": "5 µg/mL", "cell line": "Human amnion AV3 cells", "method": "cytopathic effect", "measure": "inhibition", "species": "Herpes simplex virus", "result": "5%"}
{"SMILES": "Oc1ccc(O)c(C=Nc2ccccc2O)c1", "strain": "ATCC 32608", "measure": "MIC99", "species": "Cryptococcus gattii", "result": "8 µg/mL"}
{"SMILES": "CCOC(=O)/C=C/[C@H](C[C@@H]1CCNC1=O)NC(=O)[C@@H](CC(=O)[C@@H](NC(=O)c1cc(C)on1)C(C)C)Cc1ccc(F)cc1", "cell line": "OHIO HELA-I", "strain": "Isolate 39", "method": "cytopathic effect / visual reading", "measure": "EC50", "species": "Rhinovirus", "result": "0.01 µg/mL"}
{"SMILES": "O=S(=O)(O)c1cccc2c(O)cccc12", "dose": "5 µg/mL", "cell line": "Human amnion AV3 cells", "method": "cytopathic effect", "measure": "inhibition", "species": "Rhinovirus", "result": "0%"}
{"SMILES": "O=c1[nH]c(=O)n([C@H]2C[C@H](O)[C@@H](CO)O2)cc1I", "dose": "1 µg/mL", "cell line": "HELF", "strain": "HIRAI", "method": "plaque count", "measure": "inhibition", "species": "Varicella zoster virus", "result": "62%"}
{"SMILES": "O=S(=O)([O-])c1cc(S(=O)(=O)[O-])c2cc(NS(=O)(=O)c3ccccc3)ccc2c1", "dose": "10 µg/mL", "cell line": "Human amnion AV3 cells", "method": "cytopathic effect", "measure": "inhibition", "species": "Herpes simplex virus", "result": "0%"}
{"SMILES": "CCO/N=C/c1ccc(OCCC2CCN(c3ccc(Cl)nn3)CC2)cc1", "cell line": "KB", "strain": "B632 (LDL receptor group 1B)", "method": "neutral red", "measure": "EC50", "species": "Rhinovirus", "result": "0.009 µM"}
{"SMILES": "Nc1nc2c(ncn2COCCO)c(=O)[nH]1", "dose": "10 µg/mL", "cell line": "HELF", "strain": "Ohtomo", "method": "plaque count", "measure": "inhibition", "species": "Varicella zoster virus", "result": "100%"}

2 of the rows above, restated:

SMILES | dose | cell line | strain | method | measure | species | result
O=c1[nH]c(=O)n([C@H]2C[C@H](O)[C@@H](CO)O2)cc1I | 1 µg/mL | HELF | HIRAI | plaque count | inhibition | Varicella zoster virus | 62%
O=c1[nH]c(=O)n([C@@H]2O[C@H](CO)[C@@H](O)[C@@H]2O)cc1/C=C/Cl | 0.0001 µg/mL | HELF | Ohtomo | plaque count | inhibition | Varicella zoster virus | 68%

MIC50, MIC90 and the like: level of inhibition, or share of isolates inhibited. Neighbouring rows are from separate reports. Inhibition is in % at the dose shown (toxicity tests: loss of growth or viability).